According to US20250263467A1 (VIR BIOTECHNOLOGY, published 2025):

Molecular target: SARS-CoV-2 S protein (strain BetaCoV/Wuhan-Hu-1/2019) expressed on transfected cells (SARS-CoV-2 (Wuhan-Hu-1), UniProt P0DTC2 14-1273)
Experiment: flow cytometry, B cell supernatant on S-transfected ExpiCHO cells

B1: SARS-CoV-2 S306 (antibody, V domains shown)
VH: QVQLVQSGAEVKKPGASVKVSCKASTYTFTSFGISWVRQAPGQGLEWMGWITTYSGDTNYAQKFQGRVTMTTDTSTNTAYMELRSLRSDDTAVYYCASDYFDSSGYYHSFDYWGQGTLVTVSS
VL: EIVLTQSPDTLSLSPGERATLSCRASQSVSSYLAWYQQRPGQAPRLLIYDASKRATGIPARFSGSGSGTDFTLTISSLEPEDFAVYYCQQRSNWPPGCSFGQGTKVEIK
**Q.** Does B1 bind?
**A.** Result: binds
